How the values were obtained:
Assay type in all cases: functional
Helicobacter pylori [1] = test: Antibacterial activity against metronidazole/rifampicin-resistant Helicobacter pylori CB1771 harboring rpoBL525I/D530N/rdxAE75stop mutant at 1:1 compound to rifabutin molar ratio measured after 5 days in presence of rifabutin by agar dilution method; settings: CB1771, 120 h, time 5 day
Helicobacter pylori [2] = test: Antibacterial activity against metronidazole/rifampicin-resistant Helicobacter pylori CB1893 harboring rpoBL525I/D530N/rdxAR16S mutant at 1:1 compound to rifabutin molar ratio measured after 5 days in presence of rifabutin by agar dilution method; settings: CB1893, 120 h, time 5 day
Helicobacter pylori [3] = test: Antibacterial activity against rifampicin-resistant Helicobacter pylori CB1903 harboring rpoBD530V mutant at 1:1 compound to rifampicin molar ratio measured after 5 days in presence of rifampicin by agar dilution method; settings: CB1903, 120 h, time 5 day

Measured: MIC

Cc1ncc([N+](=O)[O-])n1CCO [METRONIDAZOLE]
16 µg/mL: all assays above

— ChEMBL document CHEMBL5131497, “Design, Synthesis, and Characterization of TNP-2198, a Dual-Targeted Rifamycin-Nitroimidazole Conjugate with Potent Activity against Microaerophilic and Anaerobic Bacterial Pathogens” (J Med Chem, 2022)
